Anti-infective test results gathered from many reports (values: NIAID ChemDB through PubChem).

Shared fields: whole-cell or culture tests; species: Mycobacterium tuberculosis

Blank or dashed fields: not listed here. Percent inhibition refers to the dose given; in toxicity tests it is the harm to the cells. ECn is the concentration giving n% inhibition of infection, replication or growth. MIC bound comes from a single tested concentration. Rows are shuffled and stem from different studies.

smiles,method,read-out,cells,dose,strain,result
O=C1C(Cl)=C(N=Nc2c(Cl)c(O)c3ccccc3c2O)C(=O)c2ccccc21,BACTEC,inhibition,,12.5 µg/mL,H37Rv,97%
CCOC(=O)Nc1cc(C[C@@H](C)[C@H](O)c2ccccc2)c(N)c(N)n1,,EC50,,,H37Rv,>12.5 µg/mL
CCOc1ccccc1CNCCNCCNc1ccccc1,,MIC,,,,25 µM
CCC[CH2][Sn]([Cl])([CH2]CCC)[S]C(=S)NCCNC(=S)[S][Sn]([Cl])([CH2]CCC)[CH2]CCC,,MIC,VERO,,H37Rv,0.78 µg/mL
CCOC(=O)Nc1cc(NCCC(=O)c2ccccc2)c([N+](=O)[O-])c(N)n1,,inhibition,,12.5 µg/mL,H37Rv,0%
Cc1ccc(Nc2ccc3c4c2C(=O)c2ccccc2-c4c(-c2ccccc2)c(=O)n3C)c(S(=O)(=O)O)c1.N,,MIC,,,H37Rv,>100 µg/mL
c1ccc(CNCCNCCC(c2ccccc2)c2ccccc2)cc1,,MIC,,,,50 µM
CC(C)(C)c1ccc(NS(=O)(=O)c2ccc(N)cc2)cc1Br,BACTEC,inhibition,,12.5 µg/mL,H37Rv,19%
COCN1COCN(COC)C1=O,,MIC,,,H37Rv,>100 µg/mL
CCCCC(CC)CN1CN(CC(CC)CCCC)CC(C)(NCCNC(C)C)C1,,MIC,,,,25 µM
c1ccc(CCCCNCCNC2CCCCCCC2)cc1,,MIC,,,,25 µM
CCOC(=O)NC1CCCCC1,,MIC,,,H37Rv,>100 µg/mL
CC(C)c1ccc2c(c1)CC[C@H]1[C@](C)(CNCCNC3CCCCCCC3)CCC[C@]21C,,MIC,,,,25 µM
CCCC(CS(C)(=O)=O)S(=O)(=O)[O-].[Na+],,MIC,,,H37Rv,>100 µg/mL
NNC(=O)C(=O)C1CC(c2ccc(Cl)cc2)=NNC1=O,resazurin,inhibition,,6.25 µg/mL,H37Rv,-9%
C[N+](C)(CCCCOc1ccccc1)CCCCOc1ccccc1.[Br-],,MIC,,,H37Rv,50 µg/mL
NC(=S)N/N=C(\C(=O)Nc1ccc(Cl)c(Cl)c1)C1=NN(c2ccccc2)C(c2cccc([N+](=O)[O-])c2)CC1=O,BACTEC,MIC bound,,,H37Rv,>12.5 µg/mL
COc1cc(CNCCNC[C@]2(C)CCC[C@]3(C)c4ccc(C(C)C)cc4CC[C@@H]23)cc(OC)c1OC,,MIC,,,,50 µM
CCOC(=O)c1c(O)cc2ccccc2c1O,,MIC,,,H37Rv,100 µg/mL
COC(=O)C1C(O)C(C)C(O)C(C)/C=C\C=C(/C)C(=O)Nc2c(C)c3c4c(c2O)C(=O)C(C)=C2OCCC(=C24)C(OC(C)=O)(C3)/C(C)=C/C(C)(O)C(O)C(C)C1O,BACTEC,MIC bound,,,H37Rv,>12.5 µg/mL
CCC(C)(C)c1ccc(Oc2cccc(C(=O)N(C)c3ccc(O)cc3)c2)cc1,,MIC,,,H37Rv,>100 µg/mL
Cc1ccc(NC(=O)COc2ccc(Cl)cc2Cl)cc1Cl,BACTEC,inhibition,,12.5 µg/mL,H37Rv,0%
COc1ccc(Cc2ccc(OC)c([N+](=O)[O-])c2)cc1[N+](=O)[O-],,MIC,,,H37Rv,>100 µg/mL
CO[C@H]1/C=C/O[C@@]2(C)Oc3c(C)c(O)c4c(=O)c(c5oc6cc(N7CCN(CC(C)C)CC7)cc(=O)c6nc5c4c3=C2O)NC(=O)/C(C)=C\C=C\[C@H](C)[C@H](O)[C@@H](C)[C@@H](O)[C@@H](C)[C@H](OC(C)=O)[C@@H]1C,,MBC,,,2749 (rifampin-sensitive),0.025 µg/mL
CC(=O)NC1c2ccccc2-c2ccc(C(=O)O)cc21,,MIC,,,H37Rv,>100 µg/mL
CCSC(C[C@@H](O)[C@H](O)[C@H](O)CO)SCC,,inhibition,,6.25 µg/mL,H37Rv,5%
CC(C)N=c1cc2n(-c3ccc(Cl)cc3)c3ccccc3nc-2cc1Nc1ccc(Cl)cc1,broth dilution / resazurin,MIC,,,MDR20,1 µg/mL
CNc1ccc(O)cc1.O=S(=O)(O)O,,MIC,,,H37Rv,50 µg/mL
C=CCNCCNC1(C)CN(CC(CC)CCCC)CN(CC(CC)CCCC)C1,,MIC,,,,12.5 µM
O=C1CN(Br)C(=O)N1Br,BACTEC,MIC bound,,,H37Rv,>12.5 µg/mL
O=C(SSC(=O)c1ccc(C(=O)c2ccccc2)cc1)c1ccc(C(=O)c2ccccc2)cc1,,MIC,,,H37Rv,>100 µg/mL
Cc1ccc(N2C(=O)CC(Sc3ccccc3N)C2=O)cc1Cl,BACTEC,inhibition,,12.5 µg/mL,H37Rv,-68%
COc1ccc(CNCCNCCc2ccc(F)cc2)c(OC)c1,,MIC,,,,50 µM
CCOC(=O)Nc1cc2c(c(N)n1)N=C1c3ccccc3CCC1O2,,EC50,,,H37Rv,<12.5 µg/mL
COC(=O)[C@H]1[C@H]2C[C@@H]3c4[nH]c5ccccc5c4CCN3C[C@H]2C[C@@H](O)[C@@H]1OC(=O)c1cc(OC)c(OC)c(OC)c1,BACTEC,MIC,,,H37Rv,≥12.8 µg/mL
CCOC(=O)Nc1cc(NCC(=O)CN(C)c2ccccc2)c([N+](=O)[O-])c(NC(=O)OCC)n1,,inhibition,,12.5 µg/mL,H37Rv,0%
CC1CC/C(=N/NC(N)=O)CC1C,,MIC,,,H37Rv,>100 µg/mL
CCCCCCCCCCCCCCCCCCNCCNC1CCC1,,MIC,,,,50 µM
[N-]=[N+]=CC(=O)OC[C@@H]1NC(=O)[C@H](COC(=O)C=[N+]=[N-])NC1=O,BACTEC,MIC,,,H37Rv,≥12.5 µg/mL
CO[C@H]1/C=C/O[C@@]2(C)Oc3c(C)c(O)c4c(O)c(c(/C=N/N5CCN(C/C=C/c6ccccc6)CC5)c(O)c4c3C2=O)NC(=O)/C(C)=C\C=C\[C@H](C)[C@H](O)[C@@H](C)[C@@H](O)[C@@H](C)[C@H](OC(C)=O)[C@@H]1C,,MIC,,,3113 (rifampin-sensitive),0.05 µg/mL
Cc1cccc(N(CC(N)=O)C2CCCO2)c1,,MIC,,,H37Rv,100 µg/mL
O=C(Nc1ccc(NC(=O)Nc2cc(C(=O)Nc3ccc(C4=NCCN4)cc3)ccc2C(=O)Nc2ccc(C3=NCCN3)cc2)cc1)Nc1cc(C(=O)Nc2ccc(C3=NCCN3)cc2)ccc1C(=O)Nc1ccc(C2=NCCN2)cc1,BACTEC,MIC bound,,,H37Rv,>12.5 µg/mL
CCCCCCCCCCCCCCCCN.Cl,,MIC,,,H37Rv,100 µg/mL
CC1=NN(c2ccccc2)C(=O)C1N=Nc1ccc(S(=O)(=O)Nc2nccs2)cc1,BACTEC,MIC,,,H37Rv,≥12.8 µg/mL
Cc1cc(C(=O)O)c2c(ccc3ccccc32)n1,,MIC,,,H37Rv,100 µg/mL
CCCCC(CC)CN1CN(CC(CC)CCCC)CC(C)(NCCNCCc2ccc(OC)c(OC)c2)C1,,MIC,,,,6.25 µM
Nc1ccc(NC(=O)Nc2ccccc2)cc1,,MIC,,,H37Rv,25 µg/mL
NC[C@H]1O[C@H](O[C@H]2[C@H](O)[C@@H](O[C@H]3O[C@H](CO)[C@@H](O)[C@H](N)[C@H]3O)[C@H](N)C[C@@H]2N)[C@H](O)[C@@H](O)[C@@H]1O,,MIC,,,TN810 (001/19),>256 µg/mL
CCCCCCOC(=O)c1[nH]c(=O)n(CCCCCC)c(=O)c1N,resazurin,MIC bound,,,H37Rv,>6.25 µg/mL
COc1ccc(CCNCCNCc2ccc(OC)cc2OC)cc1,,MIC,,,,12.5 µM
CN(C)CCNC(=O)c1cccc2c1Oc1c(cccc1[N+](=O)[O-])O2,,inhibition,,6.25 µg/mL,H37Rv,0%
COc1ccc(CNCCNCCCCc2ccccc2)c(OC)c1,,MIC,,,,50 µM
CCN(CC)c1ccc2nc3ccc(N(CC)CC)cc3[n+](-c3ccccc3)c2c1.[Cl-],BACTEC,MIC bound,,,H37Rv,≤12.5 µg/mL
O=C(O)c1ccccc1N=Nc1ccc(O)cc1O,,MIC,,,H37Rv,>100 µg/mL
CCOC(=O)Nc1cc2nc(-c3ccccc3)c(-c3ccccc3)nc2c(N)n1,,EC50,,,H37Rv,<12.5 µg/mL
CC(=O)c1cnc(N)nc1C,,MIC,,,H37Rv,>100 µg/mL
Cc1cc(O)c(C=NC(=S)c2ccncc2)c(=O)o1,resazurin,inhibition,,6.25 µg/mL,H37Rv,-124%
Nc1ccc(S(=O)(=O)c2ccc(N)cc2Cl)cc1,,MIC,,,H37Rv,100 µg/mL
CCNCc1c(C)nc2ccc(N(C)C)cc2c1Cl,BACTEC,inhibition,,12.5 µg/mL,H37Rv,61%
O=C(O)c1cc(=O)cc(C(=O)O)[nH]1,,MIC,,,H37Rv,>100 µg/mL
OCCN(CCO)C(=S)S,BACTEC,inhibition,,12.5 µg/mL,H37Rv,6%
CC(C)=CCC/C(C)=C/CNCCNC12CC3CC(CC(C3)C1)C2,,MIC,,,,12.5 µM

The last 6 rows once more:

smiles	method	read-out	cells	dose	strain	result
Cc1cc(O)c(C=NC(=S)c2ccncc2)c(=O)o1	resazurin	inhibition		6.25 µg/mL	H37Rv	-124%
Nc1ccc(S(=O)(=O)c2ccc(N)cc2Cl)cc1		MIC			H37Rv	100 µg/mL
CCNCc1c(C)nc2ccc(N(C)C)cc2c1Cl	BACTEC	inhibition		12.5 µg/mL	H37Rv	61%
O=C(O)c1cc(=O)cc(C(=O)O)[nH]1		MIC			H37Rv	>100 µg/mL
OCCN(CCO)C(=S)S	BACTEC	inhibition		12.5 µg/mL	H37Rv	6%
CC(C)=CCC/C(C)=C/CNCCNC12CC3CC(CC(C3)C1)C2		MIC				12.5 µM